Anti-infective test results gathered from many reports (values: NIAID ChemDB through PubChem).

Shared fields: tests in culture; species: Mycobacterium tuberculosis

Conditions beyond the fields shown may differ between rows. ECn is the concentration giving n% inhibition of infection, replication or growth. An empty or dashed field is not shown. A number after MIC or MFC names an inhibition level or a share of isolates. Inhibition is in % at the dose shown (toxicity tests: loss of growth or viability). MIC bound: limit read from a one-dose screen.

structure,endpoint,tested at,strain or isolate,method,result
CC(=O)OC1CC2Cc3ccccc3C3(O)COC213,inhibition,12.5 µg/mL,H37Rv,BACTEC,97%
CC(=O)OC1(C)c2ccccc2C2c3cc(Br)ccc3-n3nnnc3C21,inhibition,6.25 µg/mL,H37Rv,BACTEC / radiometric,45%
O=C1CSC2=NCCN12,MIC bound,-,H37Rv,BACTEC,>6.25 µg/mL
NNC(=O)c1ccncc1,MIC,-,H37Rv,broth dilution / agar / visual reading,1 µg/mL
COc1ccc2c(C)cc(N/N=C(/c3ccccc3)c3ccccn3)nc2c1,inhibition,12.5 µg/mL,H37Rv,BACTEC,100%
CCCCCCCCCCCCCC(=O)O/N=C1\c2ccccc2-c2c1c(-n1ccnc1)nc1ccc(Br)cc21,MIC90,-,H37Rv,resazurin,>6.25 µg/mL
Cn1c(=O)cc(Oc2nc(Nc3ccc(C#N)cc3)nc(Oc3cc(=O)oc4ccccc34)n2)c2ccccc21,MIC,-,-,agar,100 µg/mL
COc1ccccc1/C=C1/SC(c2ccccc2OC)N(C(=O)NCCCN2c3ccccc3Sc3ccccc32)C1=O,inhibition,50 µg/mL,H37Rv,agar,65%
NC(=S)N=Nc1c(O)n(O)c2ccccc12,MIC,-,H37Rv,BACTEC,≥12.8 µg/mL
CCCC(=O)OC1(C)c2ccccc2-c2c1c(-n1ccnc1)nc1ccc(Br)cc21,MIC90,-,H37Rv,resazurin,>6.25 µg/mL
CC1COc2c(N3CCN(C)CC3)c(F)cc3c(=O)c(C(=O)O)cn1c23,MIC,-,H37Rv,-,0.5 µg/mL
CCCCNC(=O)CN1C(C(C)=O)=C(O)c2c(C)cc(C)nc2S1(=O)=O,inhibition,12.5 µg/mL,H37Rv,-,29%
O=C1NC(=S)N/C1=C/c1ccc2ccccc2c1,EC50,-,H37Rv,BACTEC,<6.25 µg/mL
CC1(C)CN(CCO)C(C)(C)CN1,MIC bound,-,H37Rv,BACTEC,>12.5 µg/mL
CO[C@H]1/C=C/O[C@@]2(C)Oc3c(C)c(O)c4c(O)c(c(/C=N/N5CCN(C)CC5)c(O)c4c3C2=O)NC(=O)/C(C)=C\C=C\[C@H](C)[C@H](O)[C@@H](C)[C@@H](O)[C@@H](C)[C@H](OC(C)=O)[C@@H]1C,MIC,-,101596,-,≥2 µg/mL
O=C1NN2CCN=C2c2ccncc21,inhibition,12.5 µg/mL,H37Rv,BACTEC,1%
CC(C)CC(NC(=O)OCC1c2ccccc2-c2ccccc21)C(=O)O/N=C1\c2ccccc2-c2c1c(N1CCN(c3ccccn3)CC1)nc1ccc(Br)cc21,MIC90,-,H37Rv,resazurin,>6.25 µg/mL
COc1ccc(-c2csc(NC(c3ccccc3)C3CCCCC3=O)n2)cc1,MIC,-,H37Rv,broth dilution / agar / visual reading,50 µg/mL
CC(C)c1ccc(NC(=O)C2(c3cccs3)CCOCC2)cc1,MIC99,-,CDC1551,turbidity,290 µM
Cc1cc(C)c2c(n1)S(=O)(=O)N/C(=C(/O)c1ccccc1)C2=O,MIC,-,H37Rv,-,>12.5 µg/mL
Nc1cc(Cl)c(Cl)cc1NS(=O)(=O)c1ccccc1,MIC bound,-,H37Rv,BACTEC,>6.25 µg/mL
Cc1c(C(=O)N2CCN(C)CC2)nn(-c2ccc(Cl)cc2Cl)c1-c1ccc(Cl)cc1,MIC90,-,H37Rv,agar,25 µg/mL
Nc1nc(-c2ccco2)cc(-c2ccc(CO)o2)n1,MIC bound,-,H37Rv,BACTEC,>12.5 µg/mL
Cn1c(=O)cc(Oc2nc(Nc3ccc(C#N)cc3)nc(Nc3nc4ccc(Br)cc4s3)n2)c2ccccc21,MIC,-,-,agar,50 µg/mL
Cc1ccc(N=Nc2c(S(=O)(=O)[O-])cc3cc(NC(=O)Nc4ccc5c(O)c(N=Nc6ccc7cc(S(=O)(=O)[O-])ccc7c6)c(S(=O)(=O)[O-])cc5c4)ccc3c2O)cc1.[Na+].[Na+].[Na+],MIC bound,-,H37Rv,BACTEC,>12.5 µg/mL
COc1ccc2nc(Nc3nc(Nc4ccc(C#N)cc4)nc(Oc4cc(=O)n(C)c5ccccc45)n3)sc2c1,MIC,-,-,agar,62.5 µg/mL
CC(=C\c1ccccc1)/C=C1/NC(=S)NC1=O,inhibition,6.25 µg/mL,H37Rv,BACTEC,95%
C=CCCC#CCCCCCCCCCCC(=O)O,MIC,-,-,-,25 µg/mL
COc1ccc(S(=O)(=O)[O-])cc1N=N/C(=N\Nc1cc(S(=O)(=O)[O-])ccc1OC)C(=O)Nc1ccccc1.[Na+].[Na+],MIC,-,H37Rv,BACTEC,≥12.5 µg/mL
O=C1CSC(c2ccc(Cl)cc2)N1C(=O)NCCCN1c2ccccc2Sc2ccccc21,inhibition,50 µg/mL,H37Rv,agar,55%
O=C1NC(=S)N/C1=C/c1ccc([N+](=O)[O-])cc1,inhibition,6.25 µg/mL,H37Rv,BACTEC,58%
CC(=O)C1=C(O)c2c(C)cc(C)nc2S(=O)(=O)N1,inhibition,12.5 µg/mL,H37Rv,-,33%
COc1ccccc1C1SCC(=O)N1C(=O)NCCCN1c2ccccc2Sc2ccccc21,inhibition,50 µg/mL,H37Rv,agar,50%
O=C(Nc1ccc(C(F)(F)F)cc1)C1(c2cccs2)CCOCC1,MIC99,-,CDC1551,turbidity,235 µM
Cc1cc(C)c2c(=O)n(CC(O)CNc3ccc4c(c3)OCO4)sc2n1,MIC,-,H37Rv,-,>12.5 µg/mL
CCCC12C=C(OC)C(=O)C=C1OC(c1ccc3c(c1)OCO3)C2C,MIC bound,-,H37Rv,BACTEC,>12.5 µg/mL
NNC(=O)c1ccncc1,MIC,-,Clinical isolate 49,resazurin / absorbance,0.03 µg/mL
O=C(O/N=C1\c2ccccc2-c2c1c(N1CCN(c3ccccn3)CC1)nc1ccc(Br)cc21)C1CC1,MIC90,-,H37Rv,resazurin,>6.25 µg/mL
O=C1OCC2C(=O)OCC12,MIC bound,-,H37Rv,BACTEC,>12.5 µg/mL
O=C(NCCc1ccc(Cl)cc1)C1(c2cccs2)CCOCC1,EC50,-,CDC1551,turbidity,6.4 µM
O=C1CSC(c2ccccc2Br)N1C(=O)NCCCN1c2ccccc2Sc2ccccc21,inhibition,25 µg/mL,H37Rv,agar,30%
CCCCCCc1nnc2c3c(c4cc(Br)ccc4n12)-c1ccccc1C3=O,inhibition,6.25 µg/mL,H37Rv,BACTEC / radiometric,47%
COc1c(N2CCNC(C)C2)c(F)cc2c(=O)c(C(=O)O)cn(C3CC3)c12,MIC,-,H37Rv,broth dilution / agar / visual reading,6.25 µg/mL
O=C1NC(=S)N/C1=C\c1ccc(O)cc1,inhibition,6.25 µg/mL,H37Rv,BACTEC,46%
CC(O)C/C=N/NC(=O)C(=O)N/N=C/CC(C)O,MIC bound,-,H37Rv,BACTEC,>12.5 µg/mL
Cc1ccccc1/C=N/C(=O)NCCCN1c2ccccc2Sc2ccccc21,inhibition,50 µg/mL,H37Rv,agar,38%
N#CC(C#N)=CNC(=S)c1ccncc1,inhibition,6.25 µg/mL,H37Rv,resazurin,-39%
Cn1c(=O)cc(Oc2nc(Nc3ccc(C#N)cc3)nc(Nc3cnccn3)n2)c2ccccc21,inhibition,250 µg/mL,-,agar,96%
CC(C)CC(=O)C1=C(O)C(Nc2ccccc2)=CC(=O)C1=Nc1ccccc1,MIC,-,H37Rv,BACTEC,128 µg/mL
Cc1cccc(/C=N/C(=O)NCCCN2c3ccccc3Sc3ccccc32)c1,inhibition,50 µg/mL,H37Rv,agar,35%
CC12CCC(C(=O)N(CCC[N+](C)(C)C)C1=O)C2(C)C,MIC bound,-,H37Rv,BACTEC,>12.5 µg/mL
O=C1c2ccccc2-c2c1c1nnc(-c3ccccc3)n1c1ccc(Br)cc21,inhibition,6.25 µg/mL,H37Rv,BACTEC / radiometric,15%
Cc1c(C(=O)NN2CCC(C)CC2)nn(-c2ccc(F)cc2F)c1-c1ccc(Cl)cc1,MIC90,-,H37Rv,agar,12.5 µg/mL
Cc1cc(C)c2c(=O)n(CC(N)=O)sc2n1,EC50,-,H37Rv,-,>12.5 µg/mL
Cc1cccc(/C=C2/SC(c3cccc(C)c3)N(C(=O)NCCCN3c4ccccc4Sc4ccccc43)C2=O)c1,inhibition,50 µg/mL,H37Rv,agar,49%
Cn1c(=O)cc(Oc2nc(Nc3ccc(C#N)cc3)nc(Sc3nc4ccccc4s3)n2)c2ccccc21,inhibition,100 µg/mL,-,agar,96%
CCC(=O)OC1(C)c2ccccc2-c2c1c(-n1ccnc1)nc1ccc(Br)cc21,MIC90,-,H37Rv,resazurin,>6.25 µg/mL
CSc1ccccc1NC(=O)C1(c2cccs2)CCOCC1,EC50,-,CDC1551,turbidity,200 µM
C/C=C/c1ccc2oc(-c3ccc(OC)c(OC)c3)c(C)c2c1,MIC,-,Clinical isolate 57,resazurin / absorbance,7.8 µg/mL
CO[C@H]1/C=C/O[C@@]2(C)Oc3c(C)c(O)c4c(O)c(c(/C=N/N5CCN(C6CCCC6)CC5)c(O)c4c3C2=O)NC(=O)/C(C)=C\C=C\[C@H](C)[C@H](O)[C@@H](C)[C@@H](O)[C@@H](C)[C@H](OC(C)=O)[C@@H]1C,MIC,-,1 isolates (rpoB Ser531Tyr),-,>8 µg/mL
Cc1c(C(=O)NN2CCCCC2)nn(-c2ccccc2Cl)c1-c1ccc(Cl)cc1,MIC90,-,H37Rv,agar,12.5 µg/mL
O=C1C(=O)c2cccnc2-c2ncccc21,inhibition,12.5 µg/mL,H37Rv,BACTEC,100%
CN(C)C(=O)OC1(C)c2ccccc2C2c3cc(Br)ccc3-n3nnnc3C21,inhibition,6.25 µg/mL,H37Rv,BACTEC / radiometric,29%
O=C1NC(=S)N/C1=C/c1cccc(C(F)(F)F)c1,EC50,-,H37Rv,BACTEC,>6.25 µg/mL
COc1ccc(-c2csc(NC(c3ccc(F)cc3)C3CCCCC3=O)n2)cc1,MIC,-,H37Rv,broth dilution / agar / visual reading,50 µg/mL
CCCCCc1nnc2c3c(c4cc(Br)ccc4n12)-c1ccccc1C3=O,inhibition,6.25 µg/mL,H37Rv,BACTEC / radiometric,55%
COC1/C=C\C=C(/C)C(=O)Nc2cc3nc4cc(Br)ccc4oc-3c(c2=O)CC(C)CC(OC)C(O)C(C)/C=C(\C)C1OC(N)=O,MIC,-,TAC-R,-,12.5 µg/mL
O=C1NC(=S)N/C1=C\c1c(F)cccc1Cl,EC50,-,H37Rv,BACTEC,>6.25 µg/mL
O=C1N(C2CCCCC2)CC2(Cc3ccccc3)c3ccccc3NC12O,inhibition,12.8 µg/mL,H37Rv,BACTEC,-2%
CC[C@H]1OC(=O)[C@H](C)[C@@H](O[C@H]2C[C@@](C)(OC)[C@@H](O)[C@H](C)O2)[C@H](C)[C@@H](O[C@@H]2O[C@H](C)C[C@H](N(C)C)[C@H]2O)[C@](C)(OC)C[C@@H](C)C(=O)[C@H](C)[C@@H](O)[C@]1(C)O,MIC,-,MC8,-,>4 µg/mL
Cc1c(C(=O)NNC(=O)c2ccncc2)nn(-c2ccc(Cl)cc2Cl)c1-c1ccccc1,MIC90,-,H37Rv,agar,25 µg/mL
Cn1c(=O)cc(Oc2nc(Nc3ccc(C#N)cc3)nc(Nc3nc4ccc([N+](=O)[O-])cc4s3)n2)c2ccccc21,inhibition,100 µg/mL,-,agar,95%
O=C(Nc1ccc(Cl)cc1)C1(c2cccs2)CCOCC1,EC50,-,CDC1551,turbidity,22 µM
C=CC(C)(O)CCC1=C(C)[C@H](OC(C)=O)[C@H](OC(C)=O)C2C(C)(C)CCC[C@]12C,MIC,-,H37Rv,BACTEC,>100 µg/mL
C/C(=C1\NC(=S)NC1=O)c1ccccc1,inhibition,6.25 µg/mL,H37Rv,BACTEC,0%
COC(=O)[C@@]1(C)CCC[C@]2(C)[C@@H]1C[C@H]1O[C@]13[C@@H](O)[C@]1(C(C)C)O[C@@H]1[C@H]1O[C@]132,MIC bound,-,H37Rv,BACTEC,>12.5 µg/mL
Cc1ccc(-c2csc(NC(c3ccc(Cl)cc3)C3CCCCC3=O)n2)cc1,MIC,-,H37Rv,broth dilution / agar / visual reading,50 µg/mL
CC1COc2c(N3CCN(C)CC3)c(F)cc3c(=O)c(C(=O)O)cn1c23,MIC90,-,64 isolates,-,0.5 µg/mL
Cn1c(=O)cc(Oc2nc(Nc3ccc(C#N)cc3)nc(Nc3nc4ccc(F)cc4s3)n2)c2ccccc21,EC99,-,-,agar,25 µg/mL
C/C(=C1\NC(=S)NC1=O)c1ccc(Cl)cc1,EC50,-,H37Rv,BACTEC,>6.25 µg/mL

Again, the opening 6 rows:

{"structure": "CC(=O)OC1CC2Cc3ccccc3C3(O)COC213", "endpoint": "inhibition", "tested at": "12.5 µg/mL", "strain or isolate": "H37Rv", "method": "BACTEC", "result": "97%"}
{"structure": "CC(=O)OC1(C)c2ccccc2C2c3cc(Br)ccc3-n3nnnc3C21", "endpoint": "inhibition", "tested at": "6.25 µg/mL", "strain or isolate": "H37Rv", "method": "BACTEC / radiometric", "result": "45%"}
{"structure": "O=C1CSC2=NCCN12", "endpoint": "MIC bound", "strain or isolate": "H37Rv", "method": "BACTEC", "result": ">6.25 µg/mL"}
{"structure": "NNC(=O)c1ccncc1", "endpoint": "MIC", "strain or isolate": "H37Rv", "method": "broth dilution / agar / visual reading", "result": "1 µg/mL"}
{"structure": "COc1ccc2c(C)cc(N/N=C(/c3ccccc3)c3ccccn3)nc2c1", "endpoint": "inhibition", "tested at": "12.5 µg/mL", "strain or isolate": "H37Rv", "method": "BACTEC", "result": "100%"}
{"structure": "CCCCCCCCCCCCCC(=O)O/N=C1\\c2ccccc2-c2c1c(-n1ccnc1)nc1ccc(Br)cc21", "endpoint": "MIC90", "strain or isolate": "H37Rv", "method": "resazurin", "result": ">6.25 µg/mL"}